Results: patent publication US20230128969A1, “POLYURETHANE FOAM COMPOSITIONS WITH ANTIMICROBIAL PROPERTIES” (SANITIZED AG, priority 2020, published 2023)

Assay: Evaluation of foam or coating quality (quality marks)
Design: key: 0: no foam or coating formed; +: very bad or collapsed foam; very defective coating; ++: bad foam quality; defective coating; +++: mediocre foam or coating quality; ++++: good foam or coating quality; +++++: comparable quality with reference foam or coating
Details: for Quality at given amount of (C) in pbw: pbw of commercial product (active content in label)
[1] = memory foam A1, 0.2 pbw (B) with 0.5 pbw (C) dimethyltetradecyl(3-(trimethoxysilyl)propyl)ammonium chloride, (E) Diglyme 0.8 pbw

Row | Molecule | Q (foam quality) [1] | Q (foam quality) (memory foam A1, 0.5 pbw (B) with 0.5 pbw (C) dimethyltetradecyl(3-(trimethoxysilyl)propyl)ammonium chloride, (E) Arcol Polyol 1108 0.5 pbw) | Quality at given amount of (C) in pbw (memory foam A1, 0.25 pbw (C)) | Quality at given amount of (C) in pbw (memory foam A1, 0.5 pbw (C)) | Quality at given amount of (C) in pbw (memory foam A1, 1 pbw (C)) | Quality at given amount of (C) in pbw (memory foam A1, 2 pbw (C)) | Quality at given amount of (C) in pbw (memory foam A1, 4 pbw (C)) | Q (foam quality) (memory foam A2, 0.25 pbw (C)) | Q (foam quality) (memory foam A2, 0.5 pbw (C)) | Q (foam quality) (memory foam A2, 1 pbw (C)) | Q (foam quality) (memory foam A2, 2 pbw (C)) | Q (foam quality) (memory foam A2, 4 pbw (C)) | Quality at given amount of (C) in pbw (memory foam A1, 8 pbw (C)) | Q (foam quality) (memory foam A2, 8 pbw (C))
1 | O=C(O)CC(O)(CC(=O)O)C(=O)O [Citric acid] | + |  |  |  |  |  |  |  |  |  |  |  |  | 
2 | O=C(O)CN(CC(=O)O)CC(=O)O [Nitrilotriacetic acid] | + |  |  |  |  |  |  |  |  |  |  |  |  | 
3 | CCCCCCCCCCC(=O)O [Undecanoic acid] |  | ++++ |  |  |  |  |  |  |  |  |  |  |  | 
4 | O.O.O=C([O-])CN(CCN(CC(=O)O)CC(=O)O)CC(=O)[O-].[Na+].[Na+] [disodium EDTA dihydrate, Disodium EDTA dihydrate] | ++++ |  |  |  |  |  |  |  |  |  |  |  |  | 
5 | CCCCCCCCCCCCN(CCCN)CCCN [laurylamine dipropylenediamine] |  |  | +++++ | ++++ | ++++ | +++ | + | ++++ | ++++ | ++++ | +++ | + |  | 
6 | CCCCCCCCCCCCCC[N+](C)(C)C.[Cl-] [myristyltrimethylammonium chloride] |  |  | +++++ | +++++ | ++++ | ++++ | ++ | +++++ | +++++ | ++++ | ++++ | ++ |  | 
7 | C8-C18-alkyldimethylbenzyl ammonium chloride |  |  | +++++ | +++++ | +++++ | ++++ | ++++ | +++++ | +++++ | ++++ | ++++ | ++++ | + | +
